A mixed list of measured activities; the numbers were collected in NIAID ChemDB.

Shared fields: whole-cell or culture tests; organism: HIV-1; cells: MT-4; read-out: EC50

Blank or dashed fields: not listed here.

SMILES	strain	changes	method	result
C#Cc1ccc(Nc2nccc(Oc3c(C)cc(-c4cn(CC(=O)OC)nn4)cc3C)n2)cc1	IIIB	Y188L	MTT	>10.35 µM
CCc1c(CC23CC4CC(CC(C4)C2)C3)nc(SCC(=O)Nc2ccc(C(C)=O)cc2Br)[nH]c1=O	RES056		MTT / absorbance	>20.54 µM
Nc1cc(Nc2cccc3ccccc23)nc(Cl)n1	IIIB		cytopathic effect / MTT	>7.6 µM
O=c1ccn([C@H]2CC[C@@H](CO)O2)c(=O)[nH]1	IIIB		cytopathic effect / trypan blue	<625 µM
COc1ccccc1Oc1nc(Nc2ccc(C#N)cc2)nc2ccccc12		K103N + Y181C	MTT	>149 µM
CC(=O)Oc1ccc(/C=C/C(=O)O[C@H](C(=O)O)[C@H](OC(=O)/C=C/c2ccc(OC(C)=O)c(OC(C)=O)c2)C(=O)O)cc1OC(C)=O	NL4-3	gp120 S158N N293D T370N T376N E377Q		7.8 µM
CC(=O)c1ccc(C)cc1NC(C(N)=O)c1c(Cl)cccc1Cl	IIIB MKC-442-resistant		p24	>137 µM
COC(=O)N1CCC(N2CCC(c3cn(C)c4ccc(-c5nc6cc(C)c([C@H](OC(C)(C)C)C(=O)O)c(-c7ccc(Cl)cc7)c6s5)cc34)CC2)C1	IIIB		luminescence	0.007 µM
CSc1ccc(OP(=O)(OC[C@@H]2CC[C@H](n3cnc4c(=O)[nH]cnc43)O2)OC[C@@H]2CC[C@H](n3cnc4c(=O)[nH]cnc43)O2)cc1	IIIB		cytopathic effect / trypan blue	≥250 µM
CC(C)(C)OC(=O)N1CCC(NC(=O)c2cc(O)c(O)c(O)c2)CC1	IIIB		MTT	>42.9 µM
C/C(CO)=C(/Br)Cn1ccc(N)nc1=O				>100 µg/mL
CCC(C)Oc1nc(N)cc(Sc2ccccc2)n1	IIIB		cytopathic effect / MTT	>80 µM
C/C(CO)=C(/Br)Cn1cnc2c(N)ncnc21				>100 µg/mL
CC(C)=CCN1Cc2cc(Cl)cc3[nH]c(=S)n(c23)C[C@@H]1C		RT-D67N K70R T215Y K219Q Y181C		<3 µM
CCOC(=O)C1C/C(=C\c2ccc(O)c(O)c2)C(=O)/C(=C/c2ccc(O)c(O)c2)C1			cytopathic effect / MTT	>5 µM
C=C(C#N)c1cc(C)c(Oc2ccnc(Nc3ccc(CN4CCN(S(C)(=O)=O)CC4)cc3)n2)c(C)c1	IIIB	F227L + V106A	MTT	0.11 µM
CCOP(=O)(OC[C@@H]1C=C[C@H](n2cc(C)c(=O)[nH]c2=O)O1)C(=O)NC	GKV-4046		p24	0.04 µM
Nc1ccn([C@@H]2CC[C@H](CO)O2)c(=O)n1	IIIB			14.5 µM
Nc1ccn([C@H]2CC[C@@H](CO)O2)c(=O)n1	ROD		MTT	0.165 µg/mL
C#Cc1ccc(Nc2nccc(Oc3c(C)cc(-c4cn(Cc5ccc(O)cc5)nn4)cc3C)n2)cc1	IIIB	L100I	MTT	≥0.35 µM
CS(=O)(=O)c1ccc(OP(=O)(OC[C@@H]2CC[C@H](n3cnc4c(N)ncnc43)O2)OC[C@@H]2CC[C@H](n3cnc4c(N)ncnc43)O2)cc1	IIIB		cytopathic effect / trypan blue	8.4 µM
CCn1nc(C2CCN(C3CN(C(C)=O)C3)CC2)c2cc(-c3nc4cc(C)c([C@H](OC(C)(C)C)C(=O)O)c(-c5ccc(Cl)cc5)c4s3)ccc21	IIIB		luminescence	0.007 µM
Cc1cc(C)c(Nc2nc(Nc3ccc(C#N)cc3)ncc2Cl)c(C)c1	NNRTI-resistant (RT K103N Y181C)	RT-K103N Y181C	cytopathic effect / MTT	0.114 µM
Cc1cn([C@H]2C[C@H](N=[N+]=[N-])[C@@H](CO)O2)c(=O)[nH]c1=O	IIIB		p24	0.0097 µM
CC(=O)N1CCC(NC(=O)c2cc(O)c(O)c(O)c2)CC1	IIIB		MTT	>42.6 µM
O=c1[nH]cnc2c1ncn2[C@H]1CC[C@@H](CO)O1	IIIB			8.4 µM
Nc1nc2c(ncn2[C@H]2CC[C@@H](CO)O2)c(=O)[nH]1	IIIB		cytopathic effect / trypan blue	6.9 µM
Cc1cc2nc(-c3ccc4c(c3)c(C3CCN(C5CN(S(C)(=O)=O)C5)CC3)nn4C)sc2c(-c2ccc(Cl)cc2)c1[C@H](OC(C)(C)C)C(=O)O	IIIB		luminescence	0.013 µM
CCC(C)Oc1cc(=O)[nH]c(S(=O)(=O)c2cccc(C)c2)n1	IIIB		cytopathic effect / MTT	>70 µM
Cc1cn([C@H]2C[C@H](N=[N+]=[N-])[C@@H](CSCCC(=O)O)O2)c(=O)[nH]c1=O	IIIB			0.31 µg/mL
O=C1C(=Cc2ccc(Cl)c(Cl)c2)CCCC1=Cc1ccc(Cl)c(Cl)c1			cytopathic effect / MTT	>120 µM
CCc1c(CC23CC4CC(CC(C4)C2)C3)nc(SCC(=O)Nc2ccc(S(N)(=O)=O)cc2)[nH]c1=O	RES056		MTT / absorbance	>12.25 µM
O=C1/C(=C\c2cc(O)c(O)c(O)c2)Cc2ccccc21			cytopathic effect / MTT	>16 µM
CC(=O)c1ccc(NC(=O)CSc2nc(CC34CC5CC(CC(C5)C3)C4)c(C)c(=O)[nH]2)c(Br)c1	IIIB		MTT / absorbance	1.3 µM
Cc1cc2nc(-c3ccc4c(c3)c(C3CCN(C5COC5)CC3)nn4CCN(C)C)sc2c(-c2ccc(Cl)cc2)c1[C@H](OC(C)(C)C)C(=O)O	IIIB		luminescence	0.011 µM
O=S(=O)(NCCc1ccccc1)Nc1ccc(Cl)cn1	IIIB		cytopathic effect / XTT	>100 µM
COC(=O)c1ccc(C(=O)N2CCC(NC(=O)c3cc(O)c(O)c(O)c3)CC2)cc1	IIIB		MTT	>26.9 µM
O=c1cc(Sc2ccccc2)nc(Cl)[nH]1	IIIB		cytopathic effect / MTT	>200 µM
O=C1/C(=C/c2ccc(O)c([N+](=O)[O-])c2)CN(Cc2ccccc2)C/C1=C\c1ccc(O)c([N+](=O)[O-])c1			cytopathic effect / MTT	>19 µM
CS(=O)(=O)c1ccc(OP(=O)(OC[C@@H]2C=C[C@H](n3ccc(N)nc3=O)O2)OC[C@@H]2C=C[C@H](n3ccc(N)nc3=O)O2)cc1	IIIB		cytopathic effect / trypan blue	5.3 µM
Cc1cn([C@H]2C[C@H](N=[N+]=[N-])[C@@H](COP(=O)(CC(N)=O)OC3CCCCC3)O2)c(=O)[nH]c1=O	GKV-4046		p24	0.0085 µM
Cc1cn([C@H]2C[C@H](N=[N+]=[N-])[C@@H](CO)O2)c(=O)[nH]c1=O	IIIB		cytopathic effect / MTT	0.032 µM
CC(=O)N1CCC(N2CCC(c3nn(C)c4ccc(-c5nc6cc(C)c([C@H](OC(C)(C)C)C(=O)O)c(-c7ccc(Cl)cc7)c6s5)nc34)CC2)C1	IIIB		luminescence	0.002 µM
O=C(NC1CCN(C(=O)c2ccc(F)cc2)CC1)c1cc(O)c(O)c(O)c1	IIIB		MTT	>30.8 µM
Nc1ncnc2c1ncn2[C@H]1CC[C@@H](CO)O1	IIIB		cytopathic effect / trypan blue	4.7 µM
CN(C)C(=O)N1CCC(NC(=O)c2cc(O)c(O)c(O)c2)CC1	IIIB		MTT	>34.3 µM
C/C(CO)=C(/Br)Cn1ccc(=O)[nH]c1=O				3.36 µg/mL
C#Cc1ccc(Nc2nccc(Oc3c(C)cc(-c4cn(Cc5ccc([N+](=O)[O-])cc5)nn4)cc3C)n2)cc1	IIIB	Y181C	MTT	1.42 µM
COc1ccccc1C(=O)N1CCC(NC(=O)c2cc(O)c(O)c(O)c2)CC1	IIIB		MTT	>147.2 µM
Cc1cn([C@H]2C[C@H](F)[C@@H](CO)O2)c(=O)[nH]c1=S	IIIB		cytopathic effect	1 µM
CCc1nc([N+](=O)[O-])c(N2CCN(C(=O)CNCCCCCCn3c(=O)c(C)cn([C@H]4C[C@H](N=[N+]=[N-])[C@@H](CO)O4)c3=O)CC2)n1Cc1ccccc1	IIIB			>48 µg/mL
Cc1cn([C@H]2C[C@H](N=[N+]=[N-])[C@@H](CO)O2)c(=O)[nH]c1=O	IIIB		cytopathic effect / MTT	0.0009 µg/mL
COc1ccc(S(=O)(=O)O)cc1N=Nc1c(S(=O)(=O)O)cc2cc(Nc3nc(Nc4ccccc4)nc(Nc4cc(C)c(N=Nc5cc(S(=O)(=O)O)cc6cc(S(=O)(=O)O)cc(O)c56)cc4OC)n3)ccc2c1O	NL4-3	GP41-L33S	cytopathic effect / MTT	0.3 µg/mL
CC(=O)N1CC[C@@H](N2CCC(c3nn(C)c4ccc(-c5nc6cc(C)c([C@H](OC(C)(C)C)C(=O)O)c(-c7ccc(Cl)cc7)c6s5)nc34)CC2)C1	IIIB		luminescence	0.002 µM
CS(=O)(=O)c1ccc(OP(=O)(OC[C@@H]2CC[C@H](n3cnc4c(=O)[nH]cnc43)O2)OC[C@@H]2CC[C@H](n3cnc4c(=O)[nH]cnc43)O2)cc1	IIIB		cytopathic effect / trypan blue	≥250 µM
Cc1ccc(NC(=O)CSc2nc(CC34CC5CC(CC(C5)C3)C4)c(C)c(=O)[nH]2)c([N+](=O)[O-])c1	RES056		MTT / absorbance	>23.08 µM
Cc1cn([C@H]2C[C@H](N=[N+]=[N-])[C@@H](CO)O2)c(=O)[nH]c1=O		NNRTI-resistant (RT K103N/Y181C)		0.002 µM
CC(=O)c1ccc(S(=O)(=O)N(CC(C)C)C[C@@H](O)[C@H](Cc2ccccc2)NC(=O)O[C@H]2CO[C@H]3OCC[C@H]32)cc1	PI RES(PR-L10M/I K20R M36I A71V G73S V77I I84V L90M) M2	PR-L10M/I K20R M36I A71V G73S V77I I84V L90M	cytopathic effect / MTT	0.0166 µM
CS(=O)(=O)c1ccc(OP(=O)(OC[C@@H]2C=C[C@H](n3cnc4c(N)ncnc43)O2)OC[C@@H]2C=C[C@H](n3cnc4c(N)ncnc43)O2)cc1	IIIB		cytopathic effect / trypan blue	74 µM
C#Cc1ccc(Nc2nccc(Oc3c(C)cc(-c4cn(Cc5ccc(C(N)=O)cc5)nn4)cc3C)n2)cc1	IIIB	K103N	MTT	0.068 µM
CCOP(=O)(OC[C@@H]1C=C[C@H](n2cc(C)c(=O)[nH]c2=O)O1)C(N)=O	GKV-4046		p24	0.9 µM
Cc1cn([C@H]2C=C[C@@H](CO)O2)c(=O)[nH]c1=O	IIIB		cytopathic effect / trypan blue	0.22 µM
CCc1c(CC23CC4CC(CC(C4)C2)C3)nc(SCc2ccc(OC)cc2)[nH]c1=O	IIIB		MTT / absorbance	0.31 µM
CN1C/C(=C\c2cc(O)c(O)c(O)c2)C(=O)/C(=C/c2cc(O)c(O)c(O)c2)C1			cytopathic effect / MTT	>46 µM
Cc1cc2nc(-c3ccc4c(c3)c(N3C5CC3CN(C3COC3)C5)nn4C)sc2c(-c2ccc(Cl)cc2)c1[C@H](OC(C)(C)C)C(=O)O	IIIB		luminescence	0.011 µM
COc1ccc(S(=O)(=O)N2CCC(NC(=O)c3cc(O)c(O)c(O)c3)CC2)cc1	IIIB		MTT	>130.5 µM
CCCN(C)C(=O)Oc1nsnc1-c1c(Cl)ccc(N)c1Cl	clinical isolate A018C AZT-resistant		p24	0.025 µM
CCC(C)Oc1cc(=O)[nH]c(Sc2cccc(Cl)c2)n1	IIIB		cytopathic effect / MTT	45 µM
C#Cc1ccc(Nc2nccc(Oc3c(C)cc(-c4cn(CC(=O)Nc5ccc(Br)cc5)nn4)cc3C)n2)cc1	IIIB	L100I	MTT	>19.78 µM
Cc1cc2nc(-c3ccc4c(c3)c(C3CCN(C[C@@H]5CCN5C)CC3)nn4C)sc2c(-c2ccc(Cl)cc2)c1[C@H](OC(C)(C)C)C(=O)O	IIIB		luminescence	0.011 µM
Cc1cn([C@H]2C[C@H](N=[N+]=[N-])[C@@H](CO)O2)c(=O)[nH]c1=O	IIIB	E138K	MTT	0.016 µM
Cc1ccnc2c1NC(=O)c1cccnc1N2C1CC1	IIIB		cytopathic effect / MTS	0.099 µM
Nc1nc(=O)n([C@@H]2CC[C@H](CO)O2)cc1F	IIIB		cytopathic effect / MTT	2.35 µM
Cc1cn([C@H]2C[C@H](F)[C@@H](CO)O2)c(=O)[nH]c1=O	IIIB		p24 / ELISA	0.005 µM

Again, the opening 8 rows:

{"SMILES": "C#Cc1ccc(Nc2nccc(Oc3c(C)cc(-c4cn(CC(=O)OC)nn4)cc3C)n2)cc1", "strain": "IIIB", "changes": "Y188L", "method": "MTT", "result": ">10.35 µM"}
{"SMILES": "CCc1c(CC23CC4CC(CC(C4)C2)C3)nc(SCC(=O)Nc2ccc(C(C)=O)cc2Br)[nH]c1=O", "strain": "RES056", "method": "MTT / absorbance", "result": ">20.54 µM"}
{"SMILES": "Nc1cc(Nc2cccc3ccccc23)nc(Cl)n1", "strain": "IIIB", "method": "cytopathic effect / MTT", "result": ">7.6 µM"}
{"SMILES": "O=c1ccn([C@H]2CC[C@@H](CO)O2)c(=O)[nH]1", "strain": "IIIB", "method": "cytopathic effect / trypan blue", "result": "<625 µM"}
{"SMILES": "COc1ccccc1Oc1nc(Nc2ccc(C#N)cc2)nc2ccccc12", "changes": "K103N + Y181C", "method": "MTT", "result": ">149 µM"}
{"SMILES": "CC(=O)Oc1ccc(/C=C/C(=O)O[C@H](C(=O)O)[C@H](OC(=O)/C=C/c2ccc(OC(C)=O)c(OC(C)=O)c2)C(=O)O)cc1OC(C)=O", "strain": "NL4-3", "changes": "gp120 S158N N293D T370N T376N E377Q", "result": "7.8 µM"}
{"SMILES": "CC(=O)c1ccc(C)cc1NC(C(N)=O)c1c(Cl)cccc1Cl", "strain": "IIIB MKC-442-resistant", "method": "p24", "result": ">137 µM"}
{"SMILES": "COC(=O)N1CCC(N2CCC(c3cn(C)c4ccc(-c5nc6cc(C)c([C@H](OC(C)(C)C)C(=O)O)c(-c7ccc(Cl)cc7)c6s5)cc34)CC2)C1", "strain": "IIIB", "method": "luminescence", "result": "0.007 µM"}

Conditions beyond the fields shown may differ between rows. ECn: concentration that inhibits the pathogen or its effect by n%.